Experimental data as given in publication PMC5899197 (Journal of Virology, 2018).

The chains behind the UniProt entries cited, without tags or fusion partners. Where a name states a change or a piece, a line headed by the entry shows the natural chain unless it says otherwise.
UniProt Q288N7: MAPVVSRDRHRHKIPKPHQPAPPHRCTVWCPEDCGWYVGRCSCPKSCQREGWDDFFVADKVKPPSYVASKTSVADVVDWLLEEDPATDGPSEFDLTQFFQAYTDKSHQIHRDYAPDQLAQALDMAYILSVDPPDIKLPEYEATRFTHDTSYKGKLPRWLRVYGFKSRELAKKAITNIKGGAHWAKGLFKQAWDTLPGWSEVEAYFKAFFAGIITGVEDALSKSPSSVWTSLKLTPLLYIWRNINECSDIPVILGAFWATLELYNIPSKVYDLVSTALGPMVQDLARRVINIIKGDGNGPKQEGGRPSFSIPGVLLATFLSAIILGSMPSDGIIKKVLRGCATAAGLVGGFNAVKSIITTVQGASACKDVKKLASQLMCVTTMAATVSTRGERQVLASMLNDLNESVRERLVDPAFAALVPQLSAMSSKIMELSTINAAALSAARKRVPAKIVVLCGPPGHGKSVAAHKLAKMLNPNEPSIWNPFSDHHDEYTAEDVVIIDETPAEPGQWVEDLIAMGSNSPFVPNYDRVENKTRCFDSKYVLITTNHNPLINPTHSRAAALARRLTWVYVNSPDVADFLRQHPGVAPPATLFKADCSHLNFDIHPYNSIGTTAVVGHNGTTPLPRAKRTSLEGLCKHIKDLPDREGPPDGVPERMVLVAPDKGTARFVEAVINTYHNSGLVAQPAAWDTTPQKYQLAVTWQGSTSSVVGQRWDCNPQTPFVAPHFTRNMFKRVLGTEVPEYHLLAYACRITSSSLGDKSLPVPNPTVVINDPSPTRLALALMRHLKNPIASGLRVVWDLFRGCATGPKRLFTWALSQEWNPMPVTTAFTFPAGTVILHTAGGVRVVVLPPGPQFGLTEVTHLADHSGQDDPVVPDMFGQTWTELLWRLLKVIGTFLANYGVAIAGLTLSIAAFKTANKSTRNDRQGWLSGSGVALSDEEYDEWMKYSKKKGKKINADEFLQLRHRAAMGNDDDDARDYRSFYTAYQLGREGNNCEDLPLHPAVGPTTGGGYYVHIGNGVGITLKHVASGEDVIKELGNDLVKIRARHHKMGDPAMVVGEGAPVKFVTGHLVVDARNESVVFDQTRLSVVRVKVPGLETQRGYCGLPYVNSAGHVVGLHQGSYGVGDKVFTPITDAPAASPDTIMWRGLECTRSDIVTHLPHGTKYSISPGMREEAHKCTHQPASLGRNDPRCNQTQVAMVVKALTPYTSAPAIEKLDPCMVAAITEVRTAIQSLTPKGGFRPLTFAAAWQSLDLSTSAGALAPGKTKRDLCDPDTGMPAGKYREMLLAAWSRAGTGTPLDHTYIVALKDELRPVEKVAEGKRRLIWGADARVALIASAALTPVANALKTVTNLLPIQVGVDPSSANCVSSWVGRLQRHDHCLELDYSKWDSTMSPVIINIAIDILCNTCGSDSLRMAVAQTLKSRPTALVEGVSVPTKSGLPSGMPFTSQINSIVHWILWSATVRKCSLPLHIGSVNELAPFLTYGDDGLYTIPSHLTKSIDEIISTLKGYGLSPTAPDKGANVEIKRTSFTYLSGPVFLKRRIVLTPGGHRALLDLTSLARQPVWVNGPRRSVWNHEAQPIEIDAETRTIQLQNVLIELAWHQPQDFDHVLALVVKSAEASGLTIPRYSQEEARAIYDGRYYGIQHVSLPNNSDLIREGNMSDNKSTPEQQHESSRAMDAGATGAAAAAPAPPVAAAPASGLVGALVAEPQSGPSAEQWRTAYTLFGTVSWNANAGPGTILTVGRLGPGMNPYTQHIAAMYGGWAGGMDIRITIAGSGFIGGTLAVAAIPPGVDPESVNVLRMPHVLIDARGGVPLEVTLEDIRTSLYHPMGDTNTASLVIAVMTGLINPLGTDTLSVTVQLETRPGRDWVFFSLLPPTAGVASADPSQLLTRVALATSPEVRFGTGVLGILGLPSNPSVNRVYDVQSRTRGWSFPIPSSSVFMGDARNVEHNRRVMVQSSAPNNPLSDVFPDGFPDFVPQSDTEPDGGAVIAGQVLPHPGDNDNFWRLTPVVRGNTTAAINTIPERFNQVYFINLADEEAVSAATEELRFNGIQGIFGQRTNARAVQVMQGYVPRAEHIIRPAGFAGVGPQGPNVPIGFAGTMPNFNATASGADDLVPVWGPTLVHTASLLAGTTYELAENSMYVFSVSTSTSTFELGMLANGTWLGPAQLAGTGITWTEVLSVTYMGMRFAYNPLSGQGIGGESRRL

Molecular target: BNeV VLPs (rMA415; VP1-major capsid and VP2-minor capsid) (Newbury agent 1, UniProt Q288N7)
Assay: plate binding assay (ELISA), HRP-streptavidin, A450
Conditions: multivalent PAA-biotin conjugate of the glycan, 10 μg/ml; immobilised VLPs 50 μg/ml; labelled compound

CC(=O)N[C@H]1[C@H]([C@H](O)[C@H](O)CO)O[C@@](O[C@H]2[C@@H](O)[C@@H](CO)O[C@@H](O[C@H]3[C@H](O[C@@H]4O[C@@H](C)[C@@H](O)[C@@H](O)[C@@H]4O)[C@@H](NC(C)=O)C(O)O[C@@H]3CO)[C@@H]2O)(C(=O)O)C[C@@H]1O (stereo partly shown)
plate binding assay (ELISA), HRP-streptavidin, A450: sialyl-Le^a (SLe^a), Le^y, Le^x, αGal, H2, H1, SLe^x, A, and B type immobilized synthetic HBGA
